Experiment [1] has as its system splenocytes of HLA-B7 (B*0702) transgenic mice. The format is cell-based. Further details: key: — represents no positive ELISpot response.
For experiment [2], the system named is splenocytes of HLA-DR2 (DRB1*1501) transgenic mice. The format is cell-based. Further details: key: — represents no positive ELISpot response.
Experiment [3] deals with splenocytes of HLA-DR3 (DRB1*0301) transgenic mice. The format is cell-based. The arrangement: key: — represents no positive ELISpot response.
The test system of experiment [4] is splenocytes of HLA-DR4 (DRB1*0401) transgenic mice. It is filed as cell-based. The arrangement: key: — represents no positive ELISpot response.
For experiment [5], the target named is HLA-DR3 (HLA-DRA*0101 and -DRB1*0301), as expressed in HLA-DR3 transgenic mice (human). In words: cell-based or functional assay.
Experiment [6] deals with HLA-DR4 (HLA-DRA*0101 and -DRB1*0401), as expressed in HLA-DR4 transgenic mice (human). In words: cell-based or functional assay.

Regarding TFEFTSFFYRYGFVANF, in experiment [1], the “B7: average IFN-γ spots forming cells per million splenocytes” value is “—”. Besides, the “DR2: average IFN-γ spots forming cells per million splenocytes” value in experiment [2] is “—”. For the same substance, the “DR3: average IFN-γ spots forming cells per million splenocytes” value in experiment [3] is listed as “—”. Further, the “DR4: average IFN-γ spots forming cells per million splenocytes” value in experiment [4] was “—”.
Regarding “PB1 548-564 peptide of influenza virus A/New York/348/2003 (H1N1)”, the IFN-γ ELISpot at 10 µg/ml peptide, splenocytes of immunized HLA transgenic mice in experiment [5] worked out at 230; in experiment [6] it was 97. The lowest concentration of peptide giving positive ELISpot response in experiment [5] and in experiment [6] was 0.1 µg/mL in each case.

The record behind these values is patent US20120294879A1, “CONSENSUS SEQUENCE FOR INFLUENZA A VIRUS” (priority 2009, published 2012).
